Measurements from patent US20020150975A1 (priority 2000, published 2002).

Chains of the proteins cited; added tags and fusions are not shown. Lines headed by an entry give the natural chain unless they say otherwise; changes in a name come on top.
UniProt Q05941: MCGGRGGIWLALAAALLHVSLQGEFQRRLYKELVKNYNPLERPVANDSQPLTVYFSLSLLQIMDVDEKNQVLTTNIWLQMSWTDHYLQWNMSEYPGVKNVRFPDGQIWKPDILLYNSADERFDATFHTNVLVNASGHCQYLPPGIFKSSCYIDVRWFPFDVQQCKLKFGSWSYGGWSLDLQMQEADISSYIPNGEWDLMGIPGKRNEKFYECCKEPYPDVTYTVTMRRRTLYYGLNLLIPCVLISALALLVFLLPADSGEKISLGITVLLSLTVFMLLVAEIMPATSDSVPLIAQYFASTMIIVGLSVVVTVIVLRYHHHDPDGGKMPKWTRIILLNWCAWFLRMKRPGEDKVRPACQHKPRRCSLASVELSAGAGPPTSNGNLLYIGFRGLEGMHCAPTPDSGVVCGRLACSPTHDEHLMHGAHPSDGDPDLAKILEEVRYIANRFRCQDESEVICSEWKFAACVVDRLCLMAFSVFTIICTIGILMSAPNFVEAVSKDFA

Target: GST-α7-(1-209) fusion protein (Rattus norvegicus, UniProt Q05941)
Test: Displacement of [125I]α-bungarotoxin binding from GST-α7-(1-209) fusion protein
Details: read-out: IC50 of displacement of [125I]α-Bgt; GST-α7-(1-209) 17 μg/ml, pH 8.0, room temperature, 1 h preincubation

With alpha-cobratoxin the IC50 was 9.1 µM.
